Fold change is the IC50 on the isolate divided by the IC50 on a reference virus; 1 = unchanged, higher = more resistant. Changes are given against the subtype B consensus. No active / inactive call. The values were gathered from many studies (numbered anew) with different assays, which the source does not name. Most viruses are clinical isolates; some are laboratory strains or clones with known resistance changes. Isolates with mixed residues are left out; stretches that were not sequenced show no change. Round top values that many isolates share are read here as limits; other very high values and 0.1 may be limits too.

Consider 14 test systems from the supplement of paper PMC3578754.

What all share (assay): fold change of IC50 against reference virus; higher = more resistant
Compound in assay [1]: CC(C)Nc1cccnc1N1CCN(C(=O)c2cc3cc(NS(C)(=O)=O)ccc3[nH]2)CC1 [delavirdine]
The protocol: (§1)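 Cell-culture drug susceptibility tests of virus bearing the reverse transcriptase of each isolate, gathered from many studies.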

Compound in assay [2]: C[C@H](Cn1cnc2c(N)ncnc21)OCP(=O)(O)O [tenofovir]
The protocol:
as §1

Compound in assay [3]: Cc1ccnc2c1NC(=O)c1cccnc1N2C1CC1 [nevirapine]
On the procedure: as §1

Compound in assay [4]: Cc1cn([C@H]2C=C[C@@H](CO)O2)c(=O)[nH]c1=O [stavudine]
On the procedure:
as §1

Compound in assay [5]: Cc1cn([C@H]2C[C@H](N=[N+]=[N-])[C@@H](CO)O2)c(=O)[nH]c1=O [zidovudine]
On the procedure:
as §1

Compound in assay [6]: Nc1ccn([C@H]2CC[C@@H](CO)O2)c(=O)n1 [zalcitabine]
The protocol:
as §1

Compound in assay [7]: Nc1nc(NC2CC2)c2ncn([C@H]3C=C[C@@H](CO)C3)c2n1 [abacavir]
The protocol:
as §1

Compound in assay [8]: O=C1Nc2ccc(Cl)cc2[C@@](C#CC2CC2)(C(F)(F)F)O1 [efavirenz]
The protocol: as §1

Compound in assay [9]: O=c1[nH]cnc2c1ncn2[C@H]1CC[C@@H](CO)O1 [didanosine]
The protocol:
as §1

As for “HIV-1 isolate 1311 (reverse transcriptase changes: R83K K103N V108I I135V E169D Y181C T200A Q207E T215Y H221Y V245T, study 121)”, the “fold change of IC50 against reference virus” value (from here on “fold change of IC50”) is no less than 250 in assay [1]; 1.7 in [2]; no less than 400 in assay [3]; 1.7 in [4]; 28 in [5]; 1.1 in [6]. The “fold change of IC50” value stood at 2.4 in assay [7], 700 in assay [8] and 1.4 in assay [9].
In the case of “HIV-1 isolate 477 (reverse transcriptase changes: T39A M41L E44D D67N K70R K122E I142V M184V I202V L210W R211K T215Y K219Q A288T, study 121)”, the “fold change of IC50” value came to 0.7 in [1]; 2.5 in [2]; 0.7 in assay [3]; 2.9 in [4]; 139 in [5]; 2.3 in assay [6]. The “fold change of IC50” value in assay [7] is 7.7; in assay [8], 0.6; in assay [9] it was 1.8.
With “HIV-1 isolate 451 (reverse transcriptase changes: R83K K103N V108I I135V T139K E169D Y181C G190A T200A Q207E T215Y V245Q, study 121)”, the “fold change of IC50” value in [1] is no less than 250; in assay [2], 1.6; in [3], no less than 400; in assay [4] it was 1.2; in assay [5], 15; in assay [6], 0.7. Besides, the “fold change of IC50” value was 1.2 in assay [7], 700 in assay [8] and 0.9 in assay [9].
Consider “HIV-1 isolate 933 (reverse transcriptase changes: M41L D67N K70R K103N K122E M184V F214L T215Y K219E A272P K277R, study 138)”, for which the “fold change of IC50” value was determined as 30.8 in assay [1]; 1.8 in [2]; 42.6 in [3]; 1.7 in [4]; 33.8 in assay [5]; 1.8 in assay [6]. Besides, the “fold change of IC50” value is 6.1 in assay [7], 19.5 in [8] and 1.6 in assay [9].
As for “HIV-1 isolate 835 (reverse transcriptase changes: M41L K122E M184V F214L T215Y A272P K277R, study 138)”, the “fold change of IC50” value in assay [1] worked out at 0.3; in assay [2], 1; in assay [3] it was 0.5; in [4], 1; in [5], 5.5; in assay [6] it was 1.4. Besides, the “fold change of IC50” value in [7] was 3.2; in assay [8] it was 0.3; in assay [9], 1.2.
For the test system “HIV-1 isolate 16 (reverse transcriptase changes: A62V V75I F77L F116Y K122E Q151M M184V F214L A272P K277R, study 138)”, the “fold change of IC50” value in assay [1] was found to be 3; in [2] it was 0.9; in assay [3], 1.3; in assay [4], 10.9; in [5] it was 244; in [6] it was 45.2. The figures for the “fold change of IC50” value in assay [7], in assay [8] and in assay [9] were 15.1, 1.3 and 19.7, respectively.
As to “HIV-1 isolate 246 (reverse transcriptase changes: P1L D67G S68G L74V Y115F D123E I135T I142V D177E M184V T200A T215F K219E V245E E297R, study 15)”, the “fold change of IC50” value in assay [1] is 1.3; in [2], 0.6; in assay [3], 0.9; in assay [4], 0.8; in assay [5], 2.4; in assay [6], 0.8. Moreover, the “fold change of IC50” value stood at 21 in assay [7], 0.9 in assay [8] and 1.9 in assay [9].
Consider “HIV-1 isolate 1355 (reverse transcriptase changes: T39A M41L K43A E44D D67N T69D V118I K122E I142V M184V Q207E L210W R211K T215Y K287R I293V E297A, study 121)”, for which the “fold change of IC50” value in assay [1] is 0.4; in assay [2], 2.3; in [3] it was 0.7; in assay [4], 3.9; in [5], 61; in [6], 3.2. In addition, the “fold change of IC50” value worked out at 7.7 in [7], 0.5 in assay [8] and 2.4 in assay [9].
“HIV-1 isolate 1283 (reverse transcriptase changes: V35M K102Q I135V T139R Y181C M184V G196E T200A T215Y L228P, study 121)”: the “fold change of IC50” value in [1] was 50; in [2], 0.4; in assay [3], 123; in assay [4], 1; in assay [5], 0.7; in assay [6] it was 2.3. Also, the results for the “fold change of IC50” value in assay [7], in assay [8] and in assay [9] were 4.6, 1 and 1.9, respectively.
For the test system “HIV-1 isolate 890 (reverse transcriptase changes: K32T T39A M41L E44D I47V D67N A98S K103N H208Y L210W R211K T215Y K219N V245T K277R R284K T286A, study 121)”, the “fold change of IC50” value in assay [1] came to 41; in [2] it was 5.9; in assay [3], 55; in assay [4], 4.2; in assay [5], 2400; in assay [6], 1.8. Moreover, the “fold change of IC50” value in assay [7] came out at 6.6; in assay [8], 15; in [9], 1.6.
“HIV-1 isolate 1238 (reverse transcriptase changes: D67N K70R L74V A98G K103N Y181C M184V K219Q, study 15)”: the “fold change of IC50” value in assay [1] came out at 200; in assay [2], 0.6; in assay [3] it was 200; in [4] it was 1.5; in assay [5] it was 1.2; in assay [6], 1.8. In addition, the “fold change of IC50” value in assay [7] turned out to be 7; in assay [8], 32; in assay [9] it was 2.1.
On to “HIV-1 isolate 74 (reverse transcriptase changes: Q174L V179I Y181C M184V V245M Q278S, study 15)”, for which the “fold change of IC50” value is 21 in assay [1]; 0.4 in assay [2]; 61 in assay [3]; 0.6 in assay [4]; 0.2 in assay [5]; 1.5 in assay [6]. For the same test system, the entries for the “fold change of IC50” value in [7], in [8] and in [9] were 2, 0.6 and 1, respectively.
Consider “HIV-1 isolate 1508 (reverse transcriptase changes: V35I M41L K43Q A98S K102Q V108I V118I D121Y K122E I135T V179E Y181C M184V T200A L210W T215Y K223Q L228R V245M A272P K275R K277R P294T, study 121)”, for which the “fold change of IC50” value was 62 in [1]; 1.2 in [2]; no less than 400 in [3]; 2.3 in assay [4]; 5.2 in assay [5]; 2.2 in assay [6]. The “fold change of IC50” value in assay [7] is 4.6; in assay [8], 15; in [9] it was 1.4.
On to “HIV-1 isolate 1015 (reverse transcriptase changes: V35T M41L R83K D177E I178M M184V T215Y V245M E248D D250E A272P T286A, study 121)”, for which the “fold change of IC50” value was 0.5 in [1]; 1.3 in [2]; 0.7 in assay [3]; 1.6 in assay [4]; 6.3 in assay [5]; 1.8 in [6]. Besides, the figures for the “fold change of IC50” value in assay [7], in [8] and in assay [9] were 3.8, 0.5 and 1.6, respectively.
